Measurements reported in PubChem BioAssay AID1224833 (University of Georgia, 2016).

Assay: 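Human genes whose knock-down alters rotavirus replication in monkey cells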 (primary screen)
System: monkey MA104 kidney cells
Knock-down reagent: siRNA pool against human genes, 50 nM
Duration: 48 h knock-down before infection; read 24 h after infection
Challenge: infection with rotavirus strain RV3 two days after transfection; infectious dose for this stage not given
Measured: 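z-score of rotavirus antigen signal per well, from a fluorescent immunoassay, relative to non-targeting control wells on the same plate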
Reading the numbers: z-score vs non-targeting control: higher = more rotavirus replication than with non-targeting control
Active means: In these data the active calls have z-score vs non-targeting control at about -1 or lower, or at about 1 or higher
Meaning of the calls: active = z-score beyond 1 either way; inactive = z-score within 1 of zero
In all, the deposit lists about 12,000 reagents; this is an unselected part. In the full data, about 5,600 (46%) are marked active. 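Active calls cover z-scores past 1 in both directions, so they include lowered as well as raised rotavirus replication.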 Unmarked entries are inactive. Reagent sequences are not shown.

gene symbol	z-score vs non-targeting control
RTP4 (receptor transporter protein 4)	1.4 (active)
VWCE (von Willebrand factor C and EGF domains)	-1.33 (active)
DERL2 (derlin 2)	0.916
CAMSAP1 (calmodulin regulated spectrin associated protein 1)	0.79
TMEM53 (transmembrane protein 53)	-2.07 (active)
TMPRSS15 (transmembrane serine protease 15)	1.2 (active)
MTHFS (methenyltetrahydrofolate synthetase)	0.89
SMC6 (structural maintenance of chromosomes 6)	-0.326
MAPK6 (mitogen-activated protein kinase 6)	3.77 (active)
RTKN2 (rhotekin 2)	-0.394
IL20RA (interleukin 20 receptor subunit alpha)	-0.579
AIMP2	-0.959
ORAI3 (ORAI calcium release-activated calcium modulator 3)	0.903
TRMT1 (tRNA methyltransferase 1)	-1.4 (active)
IL17C (interleukin 17C)	-0.857
RAD54L (RAD54 like)	-0.651
SPTB (spectrin beta, erythrocytic)	-0.465
FAM186B (family with sequence similarity 186 member B)	-0.569
C1QBP (complement C1q binding protein)	0.607
MAP7D2 (MAP7 domain containing 2)	2.25 (active)
KMT5B (lysine methyltransferase 5B)	-1.35 (active)
CYTIP (cytohesin 1 interacting protein)	-1.79 (active)
ABCC12 (ATP binding cassette subfamily C member 12)	0.653
NTAN1 (N-terminal asparagine amidase)	0.739
FKRP (fukutin related protein)	0.546
EEF1G (eukaryotic translation elongation factor 1 gamma)	-0.504
SPPL3 (signal peptide peptidase like 3)	-3.94 (active)
OR51B5 (olfactory receptor family 51 subfamily B member 5)	1.42 (active)
CTNNA3 (catenin alpha 3)	1.95 (active)
SH3BP5 (SH3 domain binding protein 5)	-2.11 (active)
ANP32CP (acidic nuclear phosphoprotein 32 family member C, pseudogene)	-3.03 (active)
VWA7 (von Willebrand factor A domain containing 7)	1.2 (active)
IQCJ (IQ motif containing J)	-0.747
SERP1 (stress associated endoplasmic reticulum protein 1)	-0.514
HAL (histidine ammonia-lyase)	2.31 (active)
TTPAL (alpha tocopherol transfer protein like)	0.761
ZNF20 (zinc finger protein 20)	0.514
C3orf38 (chromosome 3 open reading frame 38)	1.73 (active)
ESRRG (estrogen related receptor gamma)	-1.04 (active)
CEP135 (centrosomal protein 135)	-0.947
FAM13A (family with sequence similarity 13 member A)	-0.0567
RO60 (Ro60, Y RNA binding protein)	-1.92 (active)
H3C4 (H3 clustered histone 4)	0.0203
ADORA2B (adenosine A2b receptor)	3.52 (active)
TCF15 (transcription factor 15)	-1.51 (active)
TLN1 (talin 1)	-1.35 (active)
ILDR2 (immunoglobulin like domain containing receptor 2)	-1.01 (active)
CTAG1A (cancer/testis antigen 1A)	0.0514
CYP26B1 (cytochrome P450 family 26 subfamily B member 1)	0.72
OR1D2 (olfactory receptor family 1 subfamily D member 2)	1.04 (active)
ZNF575 (zinc finger protein 575)	1.03 (active)
CGB1 (chorionic gonadotropin subunit beta 1)	-1.09 (active)
IDH3B	-0.645
PIK3AP1 (phosphoinositide-3-kinase adaptor protein 1)	2.03 (active)
LIMS2 (LIM zinc finger domain containing 2)	-0.441
NR2E1 (nuclear receptor subfamily 2 group E member 1)	-0.966
RBM4 (RNA binding motif protein 4)	-0.0209
LRP12 (LDL receptor related protein 12)	-0.754
YPEL2 (yippee like 2)	1.1 (active)
CH25H (cholesterol 25-hydroxylase)	0.612
LY6G5B (lymphocyte antigen 6 family member G5B)	0.387
CT45A6 (cancer/testis antigen family 45 member A6)	0.0483
MTBP (MDM2 binding protein)	1.06 (active)
SPIN3 (spindlin family member 3)	-3.74 (active)
RPS18 (ribosomal protein S18)	-1.22 (active)
IFT52 (intraflagellar transport 52)	1.75 (active)
PCOLCE (procollagen C-endopeptidase enhancer)	-1.12 (active)
SPANXN5 (SPANX family member N5)	0.572
SLC17A7	-1.19 (active)
USP22 (ubiquitin specific peptidase 22)	-0.816
BICD2 (BICD cargo adaptor 2)	2.22 (active)
HAP1 (huntingtin associated protein 1)	-0.0052
HLA-DOB (major histocompatibility complex, class II, DO beta)	0.784
VANGL1 (VANGL planar cell polarity protein 1)	-0.0467
TIGD4 (tigger transposable element derived 4)	0.164

No new results follow: an excerpt of the list.
gene symbol	z-score vs non-targeting control
RAD54L (RAD54 like)	-0.651
SPTB (spectrin beta, erythrocytic)	-0.465
FAM186B (family with sequence similarity 186 member B)	-0.569
